Compound potency records, mixed from different reports. Data source: NIAID ChemDB in PubChem.

All rows: growth or infection tests; organism: Hepatitis C virus; measure: EC50

Rows are shuffled and stem from different studies. Blank or dashed fields: not listed here. ECn is the concentration giving n% inhibition of infection, replication or growth.

smiles | cells | strain or isolate | conditions | result
NC(=O)c1nnn([C@@H]2C[C@H](CO)C[C@H]2O)c1N | Huh7 | - | - | >320 µM
COc1ccc([C@@H]2Oc3ccc([C@H]4Oc5cc(O)cc(O)c5C(=O)[C@@H]4O)cc3O[C@H]2CO)cc1O | - | 1b | - | >40 µM
COC(=O)c1cn([C@@H]2C[C@H](CO)C[C@H]2O)nn1 | Huh7 | - | - | >320 µM
CC(C)CNC(=O)c1c(C(=O)O)sc2c(C3CCCCC3)c(-c3ccc(Cl)cc3)n(C)c12 | Huh7 | - | - | 30.8 µM
COc1cc([C@@H]2Oc3cc([C@H]4Oc5cc(O)cc(O)c5C(=O)[C@@H]4O)ccc3O[C@H]2CO)ccc1O | - | 1b | - | 80 µM
CN(Cc1ccccc1)Cc1c(C(=O)O)sc2c(C3CCCCC3)c(-c3ccccc3)[nH]c12 | Huh7 | - | - | 3.4 µM
COc1c(C)c2c(c(O)c1CC(=O)O)C(=O)OC2 | Huh7 | - | - | >40 µM
CC[C@@H]1/C=C(\C)C[C@H](C)C[C@H](OC)[C@H]2O[C@@](O)(C(=O)C(=O)N3CCCC[C@H]3C(=O)O[C@H](/C(C)=C/[C@H]3CC[C@H](O)[C@H](OC)C3)[C@H](C)[C@@H](O)CC1=O)[C@H](C)C[C@@H]2OC | Huh7 | - | - | 40 µM
C[C@@]1(O)[C@H](O)[C@@H](CO)O[C@H]1n1ccc2c(N)ncnc21 | Huh7 | - | - | <100 µM
CN1CCN(C(=O)Cn2c(-c3ccccc3)c(C3CCCCC3)c3sc(C(=O)O)cc32)CC1 | Huh7 | - | - | 2.7 µM
C[C@@]1(O)[C@H](O)[C@@H](CO)O[C@H]1n1cnc2c(=O)[nH]c(N)nc21 | Huh7 | - | - | <100 µM
CN(C)CCN1Cc2ccccc2-c2c(C3CCCCC3)c3sc(C(=O)O)cc3n2CC1=O | Huh7 | - | - | 0.39 µM
NC(=O)c1cn([C@@H]2C[C@H](CCP(=O)(O)O)C[C@H]2O)nn1 | Huh7 | - | - | >320 µM
COCn1c(-c2ccccc2)c(C2CCCCC2)c2sc(C(=O)O)cc21 | Huh7 | - | - | 5.9 µM
COc1c(C)c2c(c(O)c1C/C=C(\C)CCC(=O)OCCN1CCOCC1)C(=O)OC2 | Huh7 | - | - | 0.8 µM
CC(C)N1CCC(N(C)C(=O)Cn2c(-c3ccccc3)c(C3CCCCC3)c3sc(C(=O)O)cc32)C1 | Huh7 | - | - | 0.55 µM
COC(=O)[C@H](C)NP(=O)(OC[C@H]1O[C@@H](n2ccc3c(=O)[nH]c(N)nc32)[C@](C)(O)[C@@H]1O)Oc1ccccc1 | Huh7 | - | - | <100 µM
CO[C@@H]1[C@H](O)[C@@H](CO)O[C@H]1n1ccc(N)nc1=O | Huh7 | - | 48 h | 12.6 µM
CN(C)C(=O)Cn1c(-c2ccc(Cl)cc2)c(C2CCCCC2)c2sc(C(=O)O)cc21 | Huh7 | - | - | 1.2 µM
C[C@@]1(O)[C@H](O)[C@@H](CO)O[C@H]1n1cnc2c(N)ncnc21 | Huh7 | - | - | <100 µM
Nc1ncnc2c1ncn2[C@@H]1O[C@H](CO)C[C@H]1O | - | - | - | 46 µM

Repeating the first 2 entries:

| smiles | cells | strain or isolate | conditions | result |
|---|---|---|---|---|
| NC(=O)c1nnn([C@@H]2C[C@H](CO)C[C@H]2O)c1N | Huh7 | - | - | >320 µM |
| COc1ccc([C@@H]2Oc3ccc([C@H]4Oc5cc(O)cc(O)c5C(=O)[C@@H]4O)cc3O[C@H]2CO)cc1O | - | 1b | - | >40 µM |